Pooled drug test results. Numbers come from NIAID ChemDB, via PubChem.

Shared fields: growth or infection tests; organism: HIV-1; read by: p24; read-out: EC50

An empty or dashed field is not shown. Conditions beyond the fields shown may differ between rows. ECn is the concentration giving n% inhibition of infection, replication or growth.

smiles | strain | changes | cells | result
CN(C)C(=O)c1cnnn1[C@@H]1O[C@H](CO[Si](C)(C)C(C)(C)C)C2(OS(=O)(=O)C=C2N)[C@H]1O[Si](C)(C)C(C)(C)C | HE |  | CEM | 0.32 µM
Nc1ccn([C@H]2CC[C@@H](CO)O2)c(=O)n1 | Isolate 2441 |  | PBMC | 0.08 µM
O=C(N[C@H]1c2ccccc2OC[C@H]1O)[C@H](Cc1cccnc1)C[C@H](O)CN1CCN(Cc2ccn(-c3cccc(C(F)(F)F)c3)c2)C[C@H]1C(=O)NCC(F)(F)F | NL4-3 WT |  | MT-4 | <0.015 µM
C/C1=C\C=C(\C(C)C)[C@@H](O)C/C(C)=C/CC/C(C)=C/CC1 | IIIB |  | Jurkat cells | >0.1 µM
Cc1ccnc2c1NC(=O)c1cccnc1N2C1CC1 | IIIB |  | C8166 | 0.012 µM
Nc1ncnc2c1ncn2CCOCP(=O)(O)O | HXB2D |  | PBMC | 0.8 µM
Cc1cn([C@H]2C[C@H](N=[N+]=[N-])[C@@H](COC(=O)c3ccncc3)O2)c(=O)[nH]c1=O | IIIB |  | MT-4 | 0.007 µM
CCOC(=O)c1cn([C@@H]2O[C@H](CO[Si](C)(C)C(C)(C)C)C3(OS(=O)(=O)C=C3N)[C@H]2O[Si](C)(C)C(C)(C)C)nn1 | BaL |  | MM + M/M | <3.3 µM
CC(C)[C@H](NC(=O)c1ccc2ccccc2n1)C(=O)N[C@@H](Cc1ccccc1)[C@H](O)CN1CC[C@@H](SCc2cccnc2)C[C@H]1C(=O)NC(C)(C)C | BILA2185-resistant (PR I84V) | PR-I84V | C8166 | 0.002 µM
CCCCCCCCCCCCCCCCOCCCOP(=O)(O)COCCn1cnc2c(NC3CC3)nc(N)nc21 | LAI |  | MT-2 | <0.00001 µM
O=C(N[C@H]1c2ccccc2OC[C@H]1O)[C@H](Cc1cccnc1)C[C@H](O)CN1CCN(Cc2ccn(-c3ccc(Cl)c(Cl)c3)c2)C[C@H]1C(=O)NCC(F)(F)F | K-60C Clinical isolate | PR-L10I M46I I54V Q58E L63P I64V V77I V82F I84V L90M I93L | MT-4 | <0.031 µM
CN1N=C(N)c2cn([C@@H]3O[C@H](COP(=O)(O)O)[C@@H](O)[C@H]3O)c3ncnc1c23 | IIIB |  |  | 0.02 µM
CC(=O)N1CCC(C(=O)N(CCCN2CCC(Cc3ccc(C(N)=O)cc3)CC2)c2ccc(C)c(Cl)c2)CC1 | HE R5X4 |  | PBMC | >10 µM
CC(C)C1=C[C@H](c2ccccc2)CC[C@H]1O | IIIB |  | Jurkat cells | <0.1 µM
COC(=O)c1cnnn1[C@@H]1O[C@H](CO[Si](C)(C)C(C)(C)C)C2(OS(=O)(=O)C=C2N)[C@H]1O[Si](C)(C)C(C)(C)C | HE |  | CEM | 0.45 µM
Nc1nc(NC2CC2)c2ncn(CCOCP(=O)(O)O)c2n1 | LAI |  | MT-2 | 0.07 µM
O=c1[nH]cnc2c1ncn2[C@H]1CC[C@@H](CO)O1 | 8848 CLADE C CLADE C |  | PBMC | 0.141 µM
Cc1ccc(-c2ccc3c(c2)C=C(C(=O)Nc2ccc(C[N+](C)(C)C4CCOCC4)cc2)CCC3)cc1 | NL4-3 X4 |  | PBMC | >1 µM
CCCCCCCCCCCCCCCCOCCCOP(=O)(O)COCCNc1cc(N)nc(N)n1 | LAI |  | MT-2 | 0.14 µM
COc1ccc(Cc2nccc3c(OC)c(OC)ccc23)cc1OC | IIIB |  | H9 | >10.2 µg/mL
CCCCCCCCCCCCCCCCOCCCOP(=O)(O)CO[C@H](CO)Cn1cc(F)c(=O)[nH]c1=O | LAI |  | MT-2 | >100 µM
CCO/N=C(\c1ccc(Br)cc1)C1CCN(C2(C)CCN(C(=O)c3c(C)cc[n+]([O-])c3C)CC2)CC1 | BAL R5 |  | PBMC | 0.004 µM
O=c1[nH]cnc2c1ncn2[C@H]1CC[C@@H](CO)O1 | LAI |  | H9 | 0.465 µM
N#Cc1cccc(-n2ccc(CN3CCN(C[C@@H](O)C[C@@H](Cc4cccnc4)C(=O)N[C@H]4c5ccccc5OC[C@H]4O)[C@H](C(=O)NCC(F)(F)F)C3)c2)c1 | K-60C Clinical isolate | PR-L10I M46I I54V Q58E L63P I64V V77I V82F I84V L90M I93L | MT-4 | <0.062 µM
COc1cc(CO)c(Cc2c3cc(OC)c(OC)cc3cc[n+]2C)cc1OC | IIIB |  | H9 | >100 µg/mL
Cc1ccnc2c1NC(=O)c1cccnc1N2C1CC1 | BRU |  | CEM | 0.039 µM
CCOc1ccc(Cc2[nH+]c(C)cc3cc(OCC)c(OCC)cc23)cc1OCC | IIIB |  | H9 | 82.8 µg/mL
CCCCN1C(=O)C(CC2CCCCC2)NC(=O)C12CCN(Cc1ccc3c(c1)OCCO3)CC2 | JR-FL R5 |  | PBMC | 0.081 µM
Nc1nc(=O)n(CCOCP(=O)(O)O)cc1F | LAI |  | MT-2 | >100 µM
O=C(N[C@H]1c2ccccc2OC[C@H]1O)[C@H](Cc1cccnc1)C[C@H](O)CN1CCN(Cc2ccn(-c3cccc(F)c3)c2)C[C@H]1C(=O)NCC(F)(F)F | K-60C Clinical isolate | PR-L10I M46I I54V Q58E L63P I64V V77I V82F I84V L90M I93L | MT-4 | <0.031 µM
COc1cc2cc[n+](C)c(Cc3ccc4c(c3)OCO4)c2cc1OC | IIIB |  | H9 | >22.4 µg/mL

Repeating the final 2 entries:

smiles	strain	changes	cells	result
O=C(N[C@H]1c2ccccc2OC[C@H]1O)[C@H](Cc1cccnc1)C[C@H](O)CN1CCN(Cc2ccn(-c3cccc(F)c3)c2)C[C@H]1C(=O)NCC(F)(F)F	K-60C Clinical isolate	PR-L10I M46I I54V Q58E L63P I64V V77I V82F I84V L90M I93L	MT-4	<0.031 µM
COc1cc2cc[n+](C)c(Cc3ccc4c(c3)OCO4)c2cc1OC	IIIB		H9	>22.4 µg/mL